Anti-infective test results gathered from many reports (values: NIAID ChemDB through PubChem).

All rows: growth or infection tests; species: Candida albicans

MIC50, MIC90 and the like: level of inhibition, or share of isolates inhibited. Blank or dashed fields: not listed here. ECn is the concentration giving n% inhibition of infection, replication or growth. Rows are shuffled and stem from different studies. Two numbers with a dash give a range or band.

compound,mutations,strain or isolate,measure,method,value
Cc1c(N2CCC[C@@H](N)C2)c(F)cn2c(=O)c(C(=O)O)cc(C3CC3)c12,-,CCH442,MIC,-,>100 µg/mL
O=C(Cc1cccc2ccccc12)NCCc1ccc2c(c1)OCO2,Fluconazole-resistant,Clinical isolate,MIC80,broth dilution,>64 µg/mL
O=c1ccc2ccccc2o1,-,ATCC 14053,MIC,-,500 µg/mL
O=C(O)c1ccc(/C=C/C(=O)c2ccc([N+](=O)[O-])cc2)cc1,-,1 clinical isolate,MIC,-,>32 µg/mL
CCCCC[n+]1c2ccccc2cc2[nH]c3ccccc3c21,-,B311,MIC,-,250 µg/mL
Nc1nc(=O)n([C@H]2CS[C@@H](CO)O2)cc1F,-,85 strains (fluconazole-resistant),MIC50,-,0.25 µg/mL
C[C@H]1[C@@H](Oc2ccc(O)cc2)O[C@@H]2O[C@]3(C)CC[C@H]4[C@H](C)CC[C@@H]1C24OO3,-,ATCC 90028,EC50,-,>50 µg/mL
O=c1ccc2cc([N+](=O)[O-])ccc2o1,-,ATCC 14053,MIC,-,500 µg/mL
CC(C)(C)C1CCC(CN2C3=NC[C@@H](C4CCCCC4)N3C[C@H]2CC2CCCCC2)CC1,-,ATCC 10231,MIC,-,8–16 µg/mL
CC(=O)N1CCN(c2ccc(OC[C@H]3CO[C@](Cn4ccnc4)(c4ccc(Cl)cc4Cl)O3)cc2)CC1,-,Isogenic isolate 4 MDR1 (25X),MIC,-,≤0.008 µg/mL
C1CCC(C[C@H]2CN=C3N2C[C@@H](C2CCCCC2)N3CCC23CC4CC(CC(C4)C2)C3)CC1,-,ATCC 10231,MIC,-,10–16 µg/mL
COc1ccc(/C=C/C(=O)c2ccc(OC)c(OC)c2)cc1OC,-,ATCC 10231,MIC,-,>50 µg/mL
CCC[n+]1c2ccccc2cc2[nH]c3ccccc3c21,-,B311,MIC,-,250 µg/mL
CC(C)(C)CC(C)(C)c1ccc(OCCOCC[N+](C)(C)Cc2ccccc2)cc1,-,-,MIC,broth dilution,4 µg/mL
Cc1c(N2CCNCC2)c(F)cn2c(=O)c(C(=O)O)cc(C3CC3)c12,-,CCH442,MIC,-,>100 µg/mL
CC(C)(C)C1CCC(CN2C3=NC[C@H](Cc4ccccc4)N3C[C@@H]2Cc2ccccc2)CC1,-,ATCC 10231,MIC,-,>64 µg/mL
c1ccc2nc3c(cc2c1)[nH]c1ccccc13,-,B311,MIC,-,>250 µg/mL
O=C1/C(=C/c2ccccc2)CN(C(=O)/C=C/c2ccc(Cl)cc2)C/C1=C\c1ccccc1,-,1 clinical isolate,MIC,-,>32 µg/mL
CC(Cc1ccc(C(C)(C)C)cc1)CN1CC(C)OC(C)C1,-,YAG171 (genotype RBP1/RBP1),MIC,-,3.12 µg/mL
Cc1ccc(C(=O)/C=C/c2ccc(C(=O)O)cc2)cc1,-,1 clinical isolate,MIC,-,>32 µg/mL
CC(C)(C)C1CCC(CN2C3=NC[C@H](C4CCCCC4)N3C[C@@H]2C2CCCCC2)CC1,-,ATCC 10231,EC50,-,24.1 µg/mL
COc1cccc(/C=C/C(=O)c2ccccc2)c1OC,-,ATCC 10231,MIC,-,>50 µg/mL
Cc1c(N2CCC(C3(N)CC3)C2)c(F)cn2c(=O)c(C(=O)O)cc(C3CC3)c12.Cl,-,CCH442,MIC,-,50 µg/mL
Cc1ccc(C(=O)/C=C/c2ccc(C(=O)N3C/C(=C/c4ccccc4)C(=O)/C(=C\c4ccccc4)C3)cc2)cc1C,-,1 clinical isolate,MIC,-,>32 µg/mL
COc1ccc(/C=C/C(=O)c2ccccc2)cc1,-,ATCC 10231,MIC,-,>50 µg/mL
C[C@H]1[C@H](O)[C@@H](C)/C=C/C=C/C=C/C=C/C=C/C=C/C=C/[C@H](O[C@@H]2O[C@H](C)[C@@H](O)[C@H](N)[C@@H]2O)C[C@@H]2O[C@](O)(C[C@@H](O)C[C@@H](O)CC[C@H](O)[C@@H](O)C[C@@H](O)CC(=O)O[C@H]1C)C[C@H](O)[C@H]2C(=O)O,-,85 strains (fluconazole-resistant),MIC90,-,2 µg/mL
O=c1[nH]c2ccccc2n1C1CCN(CCCC(c2ccc(F)cc2)c2ccc(F)cc2)CC1,-,-,MIC,broth dilution,>128 µg/mL
Brc1ccc(C[N+]2(CCc3ccccc3)CCc3cc4c(cc3C2)OCO4)cc1.[Br-],Fluconazole-resistant,Clinical isolate,MIC80,broth dilution,>64 µg/mL
C=CCc1ccc(O)c(-c2ccc(O)c(CC=C)c2)c1,-,YL 370,MIC,broth dilution,128 µg/mL
CO[C@@H]1O[C@@H]2O[C@]3(C)CC[C@H]4[C@H](C)CC[C@@H]([C@H]1C)C24OO3,-,ATCC 90028,MIC,-,>50 µg/mL
COc1ccc(C(=O)/C=C/c2cc3ccccc3nc2Cl)c(OC)c1,-,ATCC 10231,MIC,-,>50 µg/mL
CN1CCC2=C(CCCC2CCc2ccccc2)C1,-,2005E,MIC,-,31 µg/mL
C[C@H]1[C@H](O)[C@@H](C)/C=C/C=C/C=C/C=C/C=C/C=C/C=C/[C@H](O[C@@H]2O[C@H](C)[C@@H](O)[C@H](N)[C@@H]2O)C[C@@H]2O[C@](O)(C[C@@H](O)C[C@@H](O)CC[C@H](O)[C@@H](O)C[C@@H](O)CC(=O)O[C@H]1C)C[C@H](O)[C@H]2C(=O)O,-,CBS 562,MIC,broth dilution,0.038 µg/mL
CN1CCC2=C(CCCC2CCc2ccc(Cl)cc2)C1,-,2381E,MIC,-,4 µg/mL
Cc1ccc(C(C)C)c(O)c1,-,ATCC 90028,EC50,broth dilution / turbidity,1.1 µM
Cc1cnccc1CCCc1ccc(F)cc1,-,C316,MIC,-,31 µg/mL
CN(C/C=C/C#CC(C)(C)C)Cc1cccc2ccccc12,-,ATCC 10231,MIC50,-,0.5 µg/mL
CC(C)COCC(CN(Cc1ccccc1)c1ccccc1)N1CCCC1,-,-,MIC,broth dilution,>128 µg/mL
CCC(C)CC(C)CCCCCCCCC(=O)N[C@H]1C[C@@H](O)[C@@H](O)NC(=O)[C@@H]2[C@@H](O)CCN2C(=O)[C@H]([C@H](O)CC(N)=O)NC(=O)[C@H]([C@H](O)[C@@H](O)c2ccc(O)cc2)NC(=O)[C@@H]2C[C@@H](O)CN2C(=O)[C@H]([C@@H](C)O)NC1=O,-,-,MIC,-,<0.01 µg/mL
COc1ccc(/C=C/C(=O)N2C/C(=C\c3ccccc3)C(=O)/C(=C/c3ccccc3)C2)cc1,-,1 clinical isolate,MIC,-,>32 µg/mL
O=C(O)c1ccccc1,-,ATCC 10231,EC50,-,0.73 µM
CC(C)(C)C1CCC(CN2C3=NC[C@H](C4CCCCC4)N3C[C@H]2C2CCCCC2)CC1,-,ATCC 10231,EC50,-,29.3 µg/mL
Cn1c2c3ccccc3nc-2cc2ccccc21,-,B311,MIC,-,250 µg/mL
Clc1ccc(COC(Cn2ccnc2)c2ccc(Cl)cc2Cl)c(Cl)c1,-,ICB 12,MIC100,broth dilution,32 µg/mL
Cc1c(N2CC[C@@H]([C@H](C)N)C2)c(F)cn2c(=O)c(C(=O)O)cc(C3CC3)c12.Cl,-,CCH442,MIC,-,>100 µg/mL
CC(C)(C)C1CCC(CN2C3=NC[C@H](CC4CCCCC4)N3C[C@@H]2CC2CCCCC2)CC1,-,ATCC 10231,EC50,-,4.2 µg/mL
C[C@H]1[C@@H](Oc2ccc(S)cc2)O[C@@H]2O[C@]3(C)CC[C@H]4[C@H](C)CC[C@@H]1C24OO3,-,ATCC 90028,MIC,-,>50 µg/mL
CCCCN1C2=NC[C@H](Cc3ccccc3)N2C[C@@H]1Cc1ccccc1,-,ATCC 10231,EC50,-,>250 µg/mL
COc1ccc2oc(=O)ccc2c1,-,ATCC 14053,MIC,-,500 µg/mL
O=C1/C(=C/c2ccccc2)CN(C(=O)/C=C/c2ccc(Cl)c(Cl)c2)C/C1=C\c1ccccc1,-,1 clinical isolate,MIC,-,>32 µg/mL
CCCCCCCCNC(C)C(O)c1ccc(SC(C)C)cc1,-,-,MIC,broth dilution,16 µg/mL
CC(C)(C)c1ccc(C[N+]2=Cc3cc4c(cc3CC2)OCO4)cc1.[Br-],Fluconazole-resistant,Clinical isolate,MIC80,broth dilution,>64 µg/mL
COc1ccc2ccc(=O)oc2c1,-,ATCC 14053,MIC,-,500 µg/mL
Cc1c(N2C=NCC2)c(F)cn2c(=O)c(C(=O)O)cc(C3CC3)c12.Cl,-,CCH442,MIC,-,>100 µg/mL
CN1CCC2=C(CCCC2CCc2ccc(Cl)cc2Cl)C1,-,C316,MIC,-,16 µg/mL
Cc1c(N2CCCC(C)(N)C2)c(F)cn2c(=O)c(C(=O)O)cc(C3CC3)c12.Cl,-,CCH442,MIC,-,>100 µg/mL
O=Cc1cc(O)ccc1O,-,ATCC 90028,EC50,broth dilution / turbidity,1.13 µM
C[C@H]1[C@@H](OCCCCO)O[C@@H]2O[C@]3(C)CC[C@H]4[C@H](C)CC[C@@H]1C24OO3,-,ATCC 90028,EC50,-,>50 µg/mL
CC1(C)C=Cc2c(c3c(c4ccc(=O)oc24)OC(C)(C)C=C3)O1,-,ATCC 14053,MIC,-,500 µg/mL
O=C(NCCc1ccc2c(c1)OCO2)C(O)c1ccccc1,Fluconazole-resistant,Clinical isolate,MIC80,broth dilution,>64 µg/mL
CCN1C2=NC[C@H](Cc3ccccc3)N2C[C@@H]1C1CCCCC1,-,ATCC 10231,EC50,-,>64 µg/mL
C[C@H]1[C@@H](O)O[C@@H]2OC3(C)CC[C@H]4[C@H](C)CC[C@@H]1[C@@]24OO3,-,ATCC 90028,MIC,-,>50 µg/mL

For reference, 4 entries again:

compound	mutations	strain or isolate	measure	method	value
CN1CCC2=C(CCCC2CCc2ccccc2)C1	-	2005E	MIC	-	31 µg/mL
Cc1c(N2CCC(C3(N)CC3)C2)c(F)cn2c(=O)c(C(=O)O)cc(C3CC3)c12.Cl	-	CCH442	MIC	-	50 µg/mL
CN1CCC2=C(CCCC2CCc2ccc(Cl)cc2)C1	-	2381E	MIC	-	4 µg/mL
Cc1c(N2CC[C@@H]([C@H](C)N)C2)c(F)cn2c(=O)c(C(=O)O)cc(C3CC3)c12.Cl	-	CCH442	MIC	-	>100 µg/mL